From PubChem BioAssay AID1259415 (National Center for Advancing Translational Sciences (NCATS), 2018)
This is a selection; strong and weak results do not stand in their true shares. Records with an inconclusive call do not appear. The source made the active and inactive calls. Cut-off read from the data, not from the text of the source: active = activity change below about -60%; inconclusive = no clear call, values can overlap the other calls; inactive = above about -39%.

Test: qHTS Assay for inhibitors of the human cytomegalovirus (HCMV)
Conditions: HFF cells, HCMV-luciferase reporter, 72 h; at 57.5 µM; active compounds read low
Text: NCGC Assay Overview: Infection with human cytomegalovirus (HCMV) continues to pose significant threats for pregnant women and immunocompromised hosts. HCMV causes serious morbidity and mortality in transplant recipients, and congenital HCMV is the leading infectious cause of mental retardation and deafness in children. In the 1990s, the annual costs associated with the disease burden of congenital CMV were estimated at around $2 billion. A HCMV vaccine is not available yet and HCMV therapies result in intolerable side effects and emergence of drug resistant viruses. […] Towards this goal we have developed and characterized a luciferase HCMV reporter that was initially used in 96 well plates and then optimized to 1536-well plates for utilization in screening of the MLSMR collection, the NGCG diversity collection and the NCGC Pharmaceutical Collection of approved and investigational drugs.
NCGC Assay Protocol Summary:
This is a cell-based assay for HCMV inhibition in HFFs cells. The screening used 2 compound doses and the HCMV-luciferase at MOI of 1 PFU/cell. Cells were treated and infected with HCMV. At 72 h post infection cell lysates were collected and luciferase activity was determined using the Glomax-Multi + Detection System (Promega, Madison, WI). Data were normalized to the controls for basal activity (buffer only) and known HCMV inhibitors Salinmoycin.
1536-well assay protocol for the assay:
(1) Add 3 ul CMV/HFF cell culture. 1000 cells/well in DMEM nirmal media.
(2) Incubate 16 hr at 37C.
(3) Add 23 nl control compound, 10uM of Salinomycin.
(4) Add 23 nl compounds in DMSO solution.
(5) Add 3 ul CMV suspension. Final 1 puf/ul, Virus stock 2000pfu/ul
(6) Incubate 72 hrs at 37C.
(7) Add 4 ul OneGlo Luc Reagent.
(8) Incubate 5 min at room temperature.
% is set by controls: 0 for no effect and ±100 for the full control effect.

SMILES	activity change, negative = inhibition
O=[N+]([O-])c1cc([N+](=O)[O-])c(Nc2cccnc2)c([N+](=O)[O-])c1	inactive: 23.3%
Cc1cccc(C)c1OP(C)(N)=O (stereo not given)	inactive: -19.7%
CC(C)(C)c1ccc(OP(C)(=O)Nc2ccc(SC(F)(F)F)cc2)cc1 (stereo not given)	inactive: -6.54%
Cc1ccc(NP(C)(=O)Oc2ccccc2)c(C)c1 (stereo not given)	inactive: 1.01%
COc1ccccc1OP(C)(=O)Nc1ccc(C)cc1 (stereo not given)	inactive: -0.26%
CCOC(=O)c1ccc(NP(C)(=O)Oc2ccccc2)cc1 (stereo not given)	inactive: 18.5%
COc1ccc(OP(C)(=O)Nc2cccc(F)c2)cc1 (stereo not given)	inactive: 11.1%
COc1ccccc1OP(C)(=O)Nc1cc(Cl)ccc1C (stereo not given)	inactive: -22.7%
CCN(CC)CCCOC(=O)C(O)(c1ccccc1)c1ccccc1	inactive: -22%
COc1ccccc1-c1ccccn1.O=[N+]([O-])c1cc([N+](=O)[O-])c(O)c([N+](=O)[O-])c1	inactive: -9.87%
CP(=O)(Oc1ccccc1)OC(c1ccccc1)C(F)(F)F (stereo not given)	inactive: 1.46%
CP(=O)(Nc1ccc(SC(F)(F)F)cc1)Oc1ccc(Cl)cc1 (stereo not given)	inactive: 16.1%
Cc1cccc(C)c1OP(C)(=O)Nc1ccc(SC(F)(F)F)cc1 (stereo not given)	inactive: -3.37%
Cc1cc(C)cc(OP(C)(=O)Nc2ccc(SC(F)(F)F)cc2)c1 (stereo not given)	inactive: -12.8%
O=[N+]([O-])c1cc([N+](=O)[O-])c(O)c([N+](=O)[O-])c1.c1ccc(Oc2ccncc2)cc1	inactive: -14.4%
CCOC(=O)c1ccc(NP(C)(=O)Oc2ccc(OC)cc2)cc1 (stereo not given)	inactive: 2.75%
CCOP(C)(=S)SCC(=O)NC(C)C(=O)O (stereo not given)	inactive: -30.2%
CP(=O)(Nc1ccccn1)Oc1ccc(Cl)cc1 (stereo not given)	inactive: 38.5%
CP(=O)(Nc1ccccc1Br)Oc1ccccc1 (stereo not given)	inactive: 6.53%
COc1ccccc1OP(C)(=O)Nc1ccccc1 (stereo not given)	inactive: 6.99%
O=[N+]([O-])c1cc([N+](=O)[O-])c(Nc2nnnn2CCO)c([N+](=O)[O-])c1	inactive: -23.6%
CN1CCCCC1COC(=O)C1(O)c2ccccc2CCc2ccccc21 (stereo not given)	inactive: 22%
COc1ccccc1OP(C)(=O)Nc1c(C)cccc1C (stereo not given)	inactive: 14.6%
COc1ccc(-c2ccccn2)cc1.O=[N+]([O-])c1cc([N+](=O)[O-])c(O)c([N+](=O)[O-])c1	inactive: 15.4%
CP(=O)(Nc1ccc(SC(F)(F)F)cc1)Oc1ccccc1 (stereo not given)	inactive: -26.8%
CN(Cc1cccnc1)C(=O)COc1ccc(Cl)c(Cl)c1.O=[N+]([O-])c1cc([N+](=O)[O-])c(O)c([N+](=O)[O-])c1	inactive: -19.7%
Cc1nc2ccc3ccccc3c2s1.O=[N+]([O-])c1cc([N+](=O)[O-])c(O)c([N+](=O)[O-])c1	inactive: -11%

SMILES	activity change, negative = inhibition
COc1ccccc1OP(C)(=O)Nc1cccc(Br)c1 (stereo not given)	inactive: -36.5%
CCOC(=O)c1ccc(NP(C)(=O)Oc2cc(C)cc(C)c2)cc1 (stereo not given)	inactive: -20.4%
Cc1cc(C)cc(OP(C)(=O)Nc2ccc(C)cc2C)c1 (stereo not given)	inactive: -12.5%
Cc1cc(C)cc(OP(C)(=O)Nc2ccccn2)c1 (stereo not given)	inactive: 9.02%
CP(=O)(Nc1cccc(Br)c1)Oc1ccccc1 (stereo not given)	inactive: -5.51%
CC1=NCCc2c1[nH]c1ccccc21.O=[N+]([O-])c1cc([N+](=O)[O-])c(O)c([N+](=O)[O-])c1	inactive: 40.1%
CCOC(=O)c1ccc(NP(C)(=O)Oc2ccc(F)cc2)cc1 (stereo not given)	inactive: -8.79%
COc1ccc(OP(C)(=O)Nc2ccc(SC(F)(F)F)cc2)cc1 (stereo not given)	inactive: 27%
Cc1c([N+](=O)[O-])cc([N+](=O)[O-])c(Br)c1[N+](=O)[O-]	inactive: 50.8%
CCN(CC)CCCOC(=O)C(O)(c1ccccc1)C1CCCCC1 (stereo not given)	inactive: -19.8%
CP(=O)(Nc1ccccc1)Oc1ccc(F)cc1 (stereo not given)	inactive: 32.9%
CCCCCOc1ccc(NP(C)(=O)Oc2ccc(Cl)cc2Cl)cc1 (stereo not given)	inactive: -4.73%
CP(=O)(Nc1ccccc1F)Oc1ccccc1 (stereo not given)	inactive: 55.4%
CC(C)c1ccc(OP(C)(=O)Nc2ccc(SC(F)(F)F)cc2)cc1 (stereo not given)	inactive: -29%
O=C(OCCN1CCN(CCOCc2ccccc2)CC1)C(O)(c1ccccc1)c1ccccc1	inactive: -33.1%
CP(=O)(Nc1ccc(SC(F)(F)F)cc1)Oc1ccc(F)cc1 (stereo not given)	inactive: -1.78%
CCOP(C)(=S)SCC(=O)NC(C)(CC)C(=O)O (stereo not given)	inactive: 30%
CCOP(=O)(CC)OCC	inactive: 19.6%
CP(=O)(Nc1ccc2c(c1)OCCO2)Oc1ccccc1 (stereo not given)	inactive: 2.88%
Cc1ccccc1NP(C)(=O)Nc1ccccc1C	inactive: -30.5%
O=[N+]([O-])c1cc([N+](=O)[O-])c(C(F)(F)F)c([N+](=O)[O-])c1O	inactive: 18.2%
CN(C)CCOC(=O)C(O)(c1ccccc1)C1CCCCC1 (stereo not given)	inactive: 15.5%
COc1ccc(NP(C)(=O)Oc2ccccc2OC)cc1 (stereo not given)	inactive: 28.6%
O=[N+]([O-])c1ccc(OP2(=O)COCCO2)cc1 (stereo not given)	inactive: 68.7%
Cc1cc(-c2cccc3ccccc23)c(C)cn1.O=[N+]([O-])c1cc([N+](=O)[O-])c(O)c([N+](=O)[O-])c1	inactive: -16.8%
Cc1c(C(c2ccc3c(c2)OCO3)c2c(C)n(C)n(-c3ccccc3)c2=O)c(=O)n(-c2ccccc2)n1C.O=[N+]([O-])c1cc([N+](=O)[O-])c(O)c([N+](=O)[O-])c1	inactive: -37.8%
Nc1ccc2c(ccc3cccnc32)n1.O=[N+]([O-])c1cc([N+](=O)[O-])c(O)c([N+](=O)[O-])c1	inactive: 48%

SMILES	activity change, negative = inhibition
CCOC(=O)c1ccc(NP(C)(=O)Oc2ccc(Cl)cc2)cc1 (stereo not given)	inactive: 18.4%
CP(=O)(OC12CC3CC(CC(C3)C1)C2)OC12CC3CC(CC(C3)C1)C2	inactive: -10.5%
COc1ccc(OP(C)(=O)Nc2ccc(Br)cc2)cc1 (stereo not given)	inactive: 39.4%
CCN(CC)CC(O)COC(=O)C(O)(c1ccccc1)C1CCCCC1 (stereo not given)	inactive: 2.45%
O=C(OCCCN1CCCC1)C(O)(c1ccccc1)C1CCCCC1 (stereo not given)	inactive: -15.8%
COc1ccccc1OP(C)(=O)Nc1c(C)n(C)n(-c2ccccc2)c1=O (stereo not given)	inactive: 44.8%
CCc1ccc(OP(C)(=O)Nc2cccnc2)cc1 (stereo not given)	inactive: -25.5%
CP(=O)(Oc1ccccc1)N1CCOC1=O (stereo not given)	inactive: -20.4%
COc1ccccc1OP(C)(=O)Nc1ccccc1Br (stereo not given)	inactive: 91.3%
CC(C)(C)c1ccc(OP(C)(=O)O)cc1	inactive: 41%
CP(=O)(Nc1ccc(Cl)cc1)Oc1ccc(F)cc1 (stereo not given)	inactive: 5.46%
CN(C)C(=O)c1c([N+](=O)[O-])cc([N+](=O)[O-])cc1[N+](=O)[O-]	inactive: 11.9%
COc1ccccc1OP(C)(=O)Nc1ccc(Br)cc1 (stereo not given)	inactive: -31.4%
COc1ccc(OP(C)(=O)Nc2ccccn2)cc1 (stereo not given)	inactive: 69%
CN(C)CCOC(=O)C(O)(c1ccccc1)C1CCCC1 (stereo not given)	inactive: 2.71%
Cc1c(NP(C)(=O)Oc2ccc(C(C)C)cc2)c(=O)n(-c2ccccc2)n1C (stereo not given)	inactive: 1.97%
O=[N+]([O-])c1cc([N+](=O)[O-])c(Nc2ccccn2)c([N+](=O)[O-])c1	inactive: -31.9%
COc1ccccc1OP(C)(=O)Nc1ccc(C)cc1C (stereo not given)	inactive: 38%
CP(=O)(Nc1ccccn1)Oc1ccccc1 (stereo not given)	inactive: 12%
CCc1ccc(OP(C)(=O)O)cc1	inactive: -26.3%
Cc1cc(C)cc(OP(C)(=O)Nc2cccc(C(F)(F)F)c2)c1 (stereo not given)	inactive: -38.2%
COc1ccccc1OP(C)(=O)Nc1ccc(C)c(C)c1 (stereo not given)	inactive: -9.87%
COc1ccc(OP(C)(=O)Nc2ccccc2Br)cc1 (stereo not given)	inactive: -7.01%
CCCCCCCCCCCCCCCC1C[N+](C)(C)CCOP(C)(=O)O1 (stereo not given)	inactive: -33.4%
CP(=O)(Nc1ccc(Cl)cc1Cl)Oc1ccccc1 (stereo not given)	inactive: -14.9%
CP(=O)(OCCOc1ccccc1)OCCOc1ccccc1	inactive: 9.74%
